Tested on: Caf1QDGN76RGDS mutant, Yersinia pestis
Experiment: SDS-PAGE after partial heat dissociation (self-association)

In the case of Caf1QDGN76RGDS mutant, the result is reported as “binds”.
